Results deposited as PubChem BioAssay AID624099 (ICCB-Longwood, 2012).
The whole screen tested about 21,000 reagents; this is a random part of them. 497 of them (2.4%) count as active. 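Higher z means weaker E2 silencing; only reporter increases were scored, and knock-downs that hurt cell survival may mask genuine repressor factors.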

- Aim: 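Host factors E2 relies on to silence an HPV18 LCR reporter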 (primary screen)
- System: human C33A cervical carcinoma cells (HPV-negative) stably expressing BPV1 E2 and an HPV18 LCR luciferase reporter
- Reagent: siRNA pool against human genes, 40 nM
- Duration: 72 h
- Detection: 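Per-well luciferase luminescence, z-scored on each plate against the plate mean and SD with control wells left out, then averaged across three replicate plates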
- Reading the numbers: mean z-score and z-score: higher = stronger reporter signal, weaker E2 silencing
- Call rule: 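Mean z ≥ 2 together with z ≥ 2 in two or more of the three replicates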

CORO2B | mean z-score = -0.6; z-score, replicate A = -0.96; z-score, replicate B = -0.53; z-score, replicate C = -0.31; activity call = inactive
SENP1 | mean z-score = -0.68; z-score, replicate A = -0.43; z-score, replicate B = -1.06; z-score, replicate C = -0.55; activity call = inactive
HAND1 | mean z-score = -0.39; z-score, replicate A = -0.19; z-score, replicate B = -0.73; z-score, replicate C = -0.26; activity call = inactive
MMD | mean z-score = 0.72; z-score, replicate A = 0.65; z-score, replicate B = 0.73; z-score, replicate C = 0.78; activity call = inactive
WDR91 | mean z-score = -2.16; z-score, replicate A = -2.59; z-score, replicate B = -2.25; z-score, replicate C = -1.62; activity call = inactive
STAT2 | mean z-score = -0.13; z-score, replicate A = 0.08; z-score, replicate B = -0.1; z-score, replicate C = -0.37; activity call = inactive
SIAE | mean z-score = -0.4; z-score, replicate A = -0.29; z-score, replicate B = -0.31; z-score, replicate C = -0.6; activity call = inactive
C10orf71 | mean z-score = -0.17; z-score, replicate A = -0.21; z-score, replicate B = 0.03; z-score, replicate C = -0.33; activity call = inactive
ANXA9 | mean z-score = -1.18; z-score, replicate A = -0.92; z-score, replicate B = -1.35; z-score, replicate C = -1.28; activity call = inactive
CDIP1 | mean z-score = -0.34; z-score, replicate A = -0.56; z-score, replicate B = -0.54; z-score, replicate C = 0.08; activity call = inactive

No new results follow: 2 of the entries above.
SENP1 | mean z-score = -0.68; z-score, replicate A = -0.43; z-score, replicate B = -1.06; z-score, replicate C = -0.55; activity call = inactive
HAND1 | mean z-score = -0.39; z-score, replicate A = -0.19; z-score, replicate B = -0.73; z-score, replicate C = -0.26; activity call = inactive

The list goes on.
PLCB2 | mean z-score = -0.05; z-score, replicate A = -0.11; z-score, replicate B = 0.07; z-score, replicate C = -0.13; activity call = inactive
RBL2 | mean z-score = 0.08; z-score, replicate A = 0.02; z-score, replicate B = 0.43; z-score, replicate C = -0.21; activity call = inactive
OR5B17 | mean z-score = 2.21; z-score, replicate A = 2.07; z-score, replicate B = 2.19; z-score, replicate C = 2.38; activity call = active
PRKRA | mean z-score = -1.17; z-score, replicate A = -1.19; z-score, replicate B = -1.2; z-score, replicate C = -1.13; activity call = inactive
LRRC4B | mean z-score = 1.2; z-score, replicate A = 0.7; z-score, replicate B = 1.85; z-score, replicate C = 1.05; activity call = inactive
FAM43B | mean z-score = -0.35; z-score, replicate A = -0.42; z-score, replicate B = -0.29; z-score, replicate C = -0.33; activity call = inactive
COL22A1 | mean z-score = -0.24; z-score, replicate A = 0.07; z-score, replicate B = -0.31; z-score, replicate C = -0.48; activity call = inactive
DAZ4 | mean z-score = -1.28; z-score, replicate A = -1.14; z-score, replicate B = -1.29; z-score, replicate C = -1.42; activity call = inactive
RAB43P1 | mean z-score = -2.33; z-score, replicate A = -1.97; z-score, replicate B = -2.75; z-score, replicate C = -2.28; activity call = inactive
LATS2 | mean z-score = 0.77; z-score, replicate A = 0.53; z-score, replicate B = 0.91; z-score, replicate C = 0.86; activity call = inactive
CPB2 | mean z-score = -1.31; z-score, replicate A = -1.44; z-score, replicate B = -1.27; z-score, replicate C = -1.22; activity call = inactive
